Measured values from several laboratories, pooled; numbers as filed in NIAID ChemDB.

All rows: growth or infection tests; agent: Candida albicans

MIC50, MIC90 and the like: level of inhibition, or share of isolates inhibited.

SMILES,conditions,strain,read-out,method,value
COc1cc2ncn([C@H](C)[C@](O)(Cn3cncn3)c3ccc(F)cc3F)c(=O)c2cc1OC,-,76 strains,MIC,-,5 µg/mL
Cc1c(O)cccc1C(=O)N[C@@H](CSc1ccccc1)[C@H](O)CN1C[C@H]2CCCC[C@H]2C[C@H]1C(=O)NC(C)(C)C,-,I97,MIC,-,>64 µg/mL
CCCCCCCCOc1ccc(C(=O)NC2C[C@@H](O)[C@@H](O)NC(=O)C3[C@@H](O)[C@@H](C)CN3C(=O)C(C(C)O)NC(=O)C([C@H](O)[C@@H](O)c3ccc(O)cc3)NC(=O)C3C[C@@H](O)CN3C(=O)C(C(C)O)NC2=O)cc1,-,MY1055,MIC,-,1 µg/mL
Fc1ccccc1COc1ccc(C(c2cccc3ccccc23)n2ccnc2)cc1.O=[N+]([O-])O,-,16 strains,MIC90,-,≥256 µg/mL
CCC(C)CC(C)CCCCCCCCC(=O)N[C@H]1C[C@@H](O)[C@@H](OCCN)NC(=O)[C@@H]2[C@@H](O)CCN2C(=O)[C@H]([C@@H](O)CCN)NC(=O)[C@H]([C@H](O)[C@@H](O)c2ccc(O)cc2)NC(=O)[C@@H]2C[C@@H](O)CN2C(=O)[C@H]([C@H](C)O)NC1=O,-,Fluconazole-resistant,MIC90,-,0.06 µg/mL
C[C@@H](N1CCN(Cc2cn(Cc3ccc(F)cc3F)c3ccc(C#N)cc23)CC1)[C@](O)(Cn1cncn1)c1ccc(F)cc1F,-,ATCC 90028,MIC80,resazurin,0.125 µg/mL
C[C@@H](n1cnc2cc(Sc3ccccc3)ccc2c1=O)[C@](O)(Cn1cncn1)c1ccc(F)cc1F,-,76 strains,MIC,-,40 µg/mL
Cc1ccc(-c2c3c(N)c4c(nc3nc3c2c(C)nn3-c2ccccc2)CCCCC4)cc1,-,CCC 126,MIC50,broth dilution / absorbance,62.5 µg/mL
CCCCCOc1ccc(-c2ccc(-c3ccc(C(=O)N[C@H]4CCCNC(=O)C5CN(C(=O)OCc6ccccc6)CN5C(=O)C(C(C)O)NC(=O)C(CCc5ccc(O)cc5)NC(=O)C5C[C@@H](O)CN5C(=O)C(C(C)O)NC4=O)cc3)cc2)cc1,-,ATCC 10231,MIC,-,100 µg/mL
C[C@@H](N1CCN(Cc2cn(Cc3ccc(F)cc3F)c3c(C#N)cccc23)CC1)[C@](O)(Cn1cncn1)c1ccc(F)cc1F,-,ATCC MYA-1003,MIC80,resazurin,128 µg/mL
Fc1ccc(COc2ccc(C(c3nccc4ccccc34)n3ccnc3)cc2)c(F)c1,-,17 strains,Mean MIC,-,≥256 µg/mL
C[C@@H](n1cnc2cc(N(C)C)c(F)cc2c1=O)[C@](O)(Cn1cncn1)c1ccc(F)cc1F,-,406 strains,MIC,-,≤0.03 µg/mL
CCOc1cc2c(cc1F)n([O-])c(C)c(S(=O)(=O)c1ccccc1)[n+]2=O,-,Clinical isolate 20,MIC,-,7.8 µg/mL
Cc1ccc(-c2c3c(N)c4c(nc3nc3c2c(C)nn3-c2ccccc2)CCC4)cc1,-,CCC 128,MIC80,broth dilution / absorbance,62.5 µg/mL
C[C@@H](n1cnc2cc(C(N)=O)ccc2c1=O)[C@](O)(Cn1cncn1)c1ccc(F)cc1F,-,406 strains,MIC,-,5 µg/mL
CCCCCOc1ccc(-c2ccc(-c3ccc(C(=O)N[C@H]4CCCNC(=O)[C@@H]5C[C@H](NC(C)=O)CN5C(=O)[C@H]([C@@H](C)O)NC(=O)[C@H](CCc5ccc(O)cc5)NC(=O)[C@@H]5C[C@@H](O)CN5C(=O)[C@H]([C@@H](C)O)NC4=O)cc3)cc2)cc1,-,ATCC 10231,MIC,-,0.2 µg/mL
C[C@@H](n1cnc2cc(OCC(F)(F)F)ccc2c1=O)[C@](O)(Cn1cncn1)c1ccc(F)cc1F,-,406 strains,MIC,-,0.07 µg/mL
CCOc1cc2c(cc1F)n([O-])c(C)c(Cl)[n+]2=O,-,Clinical isolate 13,MIC,-,62.5 µg/mL
C[C@H]1[C@H](O)[C@@H](C)/C=C/C=C/C=C/C=C/C=C/C=C/C=C/[C@H](O[C@@H]2O[C@H](C)[C@@H](O)[C@H](N)[C@@H]2O)C[C@@H]2O[C@](O)(C[C@@H](O)C[C@@H](O)CC[C@H](O)[C@@H](O)C[C@@H](O)CC(=O)O[C@H]1C)C[C@H](O)[C@H]2C(=O)O,-,A25578 (flucytosine-resistant),MIC,-,0.13 µg/mL
Clc1ccccc1C(c1ccccc1)(c1ccccc1)n1ccnc1,pH 5,10 isolates,MIC,broth dilution,0.03 µg/mL
C[C@@H](n1cnc2cccc(F)c2c1=O)[C@](O)(Cn1cncn1)c1ccc(F)cc1F,-,406 strains,MIC,-,0.15 µg/mL
C=CCc1ccc(OC)c(OC)c1,-,2261,MIC90,turbidity,350 µg/mL
CCCCCCCCOc1ccc(N2CCN(c3ccc(C(=O)N[C@H]4CCCNC(=O)C5C[C@H](N)CN5C(=O)C(C(C)O)NC(=O)C(OCc5ccncc5)NC(=O)C5CCCN5C(=O)C(C(C)O)NC4=O)cc3)CC2)cc1,-,ATCC CCH442,MIC,-,3.12 µg/mL
Cc1ccc(-c2c3c(N)c4c(nc3nc3c2c(C)nn3-c2ccccc2)CCCC4)cc1,-,CCC 130,MIC80,broth dilution / absorbance,31.2 µg/mL
c1ccc(C(c2nccc3ccccc23)n2ccnc2)cc1,-,44 strains,MIC90,-,256 µg/mL
NC(=NC1CCCC1)c1ccc(-c2ccc(-c3ccc(C(N)=NC4CCCC4)cc3)o2)cc1,-,Isolate CA1247,MFC,-,50 µg/mL
C[C@@H](n1cnc2c(Br)cc(Br)cc2c1=O)[C@](O)(Cn1cncn1)c1ccc(F)cc1F,-,60 strains,MIC,-,0.07 µg/mL
C[C@H]1[C@H](O)[C@@H](C)/C=C/C=C/C=C/C=C/C=C/C=C/C=C/[C@H](O[C@@H]2O[C@H](C)[C@@H](O)[C@H](N)[C@@H]2O)C[C@@H]2O[C@](O)(C[C@@H](O)C[C@@H](O)CC[C@H](O)[C@@H](O)C[C@@H](O)CC(=O)O[C@H]1C)C[C@H](O)[C@H]2C(=O)O,-,CCC 127,MIC100,broth dilution / absorbance,0.78 µg/mL
CCCCCOc1ccc(-c2cc(-c3ccc(C(=O)N[C@H]4C[C@@H](O)[C@@H](O)NC(=O)[C@@H]5[C@@H](O)[C@@H](C)CN5C(=O)[C@H]([C@H](O)CC(N)=O)NC(=O)[C@H]([C@H](O)[C@@H](O)c5ccc(O)c(OS(=O)(=O)O)c5)NC(=O)[C@@H]5C[C@@H](O)CN5C(=O)[C@H]([C@@H](C)O)NC4=O)cc3)no2)cc1,-,37 isolates,MIC90,-,0.0156 µg/mL
C[C@@H](N1CCN(Cc2cn(Cc3cccc(C(F)(F)F)c3)c3c(F)cccc23)CC1)[C@](O)(Cn1cncn1)c1ccc(F)cc1F,-,ATCC MYA-1003,MIC80,resazurin,>128 µg/mL
CCCCCCCCCCCCCCCCCC(=O)NC1CC(O)C(O)NC(=O)C2C(O)C(C)CN2C(=O)C(C(C)O)NC(=O)C(C(O)C(O)c2ccc(O)cc2)NC(=O)C2CC(O)CN2C(=O)C(C(C)O)NC1=O,-,MY1055,MIC,-,0.25 µg/mL
COC(=O)[C@H]1[C@@H]2C[C@@H](O[C@@H]3O[C@H](C)[C@@H](O)[C@H](N)[C@@H]3O)/C=C/C=C/C=C/C=C/C=C/C=C/C=C/[C@H](C)[C@@H](O)[C@H](C)[C@H](C)OC(=O)C[C@H](O)C[C@H](O)[C@@H](O)CC[C@H](O)C[C@H](O)C[C@](O)(C[C@@H]1O)O2,pH 6,10 isolates,EC90,broth dilution,2 µg/mL
Fc1ccc(COc2ccc(C(c3ccc(-c4ccccc4)cc3)n3ccnc3)cc2)cc1.O=[N+]([O-])O,-,16 strains,MIC90,-,≥256 µg/mL
COc1ccc(-c2c3c(N)c4c(nc3nc3c2c(C)nn3-c2ccccc2)CCCC4)cc1,-,ATCC 10231,MIC100,broth dilution / absorbance,250 µg/mL
Cc1c(S(=O)(=O)c2ccccc2)[n+](=O)c2ccccc2n1[O-],-,Clinical isolate 21,MIC,-,15.6 µg/mL
C[C@@H](n1cnc2cc(F)c(F)cc2c1=O)[C@](O)(Cn1cncn1)c1ccc(F)cc1F,-,406 strains,MIC,-,0.15 µg/mL
CCC(C)CC(C)CCCCCCCCC(=O)N[C@H]1C[C@@H](O)[C@H](NCCN)NC(=O)[C@@H]2[C@@H](O)CCN2C(=O)[C@H]([C@H](O)CCN)NC(=O)[C@H]([C@H](O)[C@@H](O)c2ccc(O)cc2)NC(=O)[C@@H]2C[C@@H](O)CN2C(=O)[C@H]([C@@H](C)O)NC1=O,pH 5,15 isolates,MIC,broth dilution,0.06 µg/mL
C[C@@H](N1CCN(Cc2cn(Cc3ccc(Cl)cc3)c3ccccc23)CC1)[C@](O)(Cn1cncn1)c1ccc(F)cc1F,-,ATCC MYA-1003,MIC80,resazurin,8 µg/mL
CCCCCOc1ccc(-c2ccc(-c3ccc(C(=O)N[C@H]4CCCNC(=O)[C@@H]5C[C@H](N)CN5C(=O)[C@H](CC)NC(=O)C(CCc5ccc(O)cc5)NC(=O)[C@@H]5C[C@@H](O)CN5C(=O)[C@H]([C@@H](C)O)NC4=O)cc3)cc2)cc1,-,ATCC CCH442,MIC,-,0.1 µg/mL
C[C@@H](c1nc(-c2ccc(C#N)cc2)cs1)[C@](O)(Cn1cnnc1)c1ccc(F)cc1F,-,A28235,MFC99,-,>16 µg/mL
CCCCCc1ccc(C(=O)N[C@H]2CCCNC(=O)C3C[C@H](N)CN3C(=O)C(C(C)O)NC(=O)C(CCc3ccc(O)cc3)NC(=O)C3C[C@@H](O)CN3C(=O)C(C(C)O)NC2=O)cc1,-,ATCC CCH442,MIC,-,25 µg/mL
CC(/C=C/C=C(\C)C(O)C(C)C(=O)O[C@H]1C[C@@H](C)C=C2C=C[C@@](C)(O)[C@](C)(C(=O)CCO)[C@H]21)=C\C=C\C(=O)O,-,ATCC 10231,MIC,-,50 µg/mL
C=CCn1cc(CN2CCN([C@H](C)[C@](O)(Cn3cncn3)c3ccc(F)cc3F)CC2)c2ccc(Cl)cc21,-,ATCC 90028,MIC80,resazurin,0.125 µg/mL
C[C@@H](c1ncncc1F)[C@](O)(Cn1cncn1)c1ccc(F)cc1F,pH 4,15 isolates,MIC,broth dilution,0.03 µg/mL
Clc1ccc(COc2ccc(C(c3ccc4ccccc4c3)n3ccnc3)cc2)c(Cl)c1,-,16 strains,MIC90,-,≥256 µg/mL
Cc1cccc2ncn([C@H](C)[C@](O)(Cn3cncn3)c3ccc(F)cc3F)c(=O)c12,-,60 strains,MIC,-,0.15 µg/mL
Cc1c(Sc2ccccc2)[n+](=O)c2cc(Cl)ccc2n1[O-],-,Clinical isolate 22,MIC,-,7.8 µg/mL

For reference, 6 entries again:

SMILES,conditions,strain,read-out,method,value
C[C@@H](N1CCN(Cc2cn(Cc3ccc(F)cc3F)c3c(C#N)cccc23)CC1)[C@](O)(Cn1cncn1)c1ccc(F)cc1F,-,ATCC MYA-1003,MIC80,resazurin,128 µg/mL
CCOc1cc2c(cc1F)n([O-])c(C)c(Cl)[n+]2=O,-,Clinical isolate 13,MIC,-,62.5 µg/mL
C[C@@H](c1nc(-c2ccc(C#N)cc2)cs1)[C@](O)(Cn1cnnc1)c1ccc(F)cc1F,-,A28235,MFC99,-,>16 µg/mL
C[C@@H](N1CCN(Cc2cn(Cc3ccc(Cl)cc3)c3ccccc23)CC1)[C@](O)(Cn1cncn1)c1ccc(F)cc1F,-,ATCC MYA-1003,MIC80,resazurin,8 µg/mL
C[C@@H](n1cnc2cc(Sc3ccccc3)ccc2c1=O)[C@](O)(Cn1cncn1)c1ccc(F)cc1F,-,76 strains,MIC,-,40 µg/mL
Cc1c(Sc2ccccc2)[n+](=O)c2cc(Cl)ccc2n1[O-],-,Clinical isolate 22,MIC,-,7.8 µg/mL

An empty or dashed field is not shown. ECn is the concentration giving n% inhibition of infection, replication or growth. Conditions beyond the fields shown may differ between rows.